# Values quoted from earlier work, collected in patent US20260041660A1 (priority 2020, published 2026).
# System: SARS-COV-2
# Settings: in vivo; cited from earlier work
substance,measurement,value
"IFNα2b: type I interferon, given as sprays",infection rates of SARS-COV-2,can reduce infection rates
